Biological target: IpgC (cognate chaperone of IpaB, untagged, expressed from pACYCDuet-1) (Shigella flexneri 2457T, UniProt P0A2U4 1-155)

B1: His-tag IpaD-IpaB chimeric (fusion) protein (other)
chain: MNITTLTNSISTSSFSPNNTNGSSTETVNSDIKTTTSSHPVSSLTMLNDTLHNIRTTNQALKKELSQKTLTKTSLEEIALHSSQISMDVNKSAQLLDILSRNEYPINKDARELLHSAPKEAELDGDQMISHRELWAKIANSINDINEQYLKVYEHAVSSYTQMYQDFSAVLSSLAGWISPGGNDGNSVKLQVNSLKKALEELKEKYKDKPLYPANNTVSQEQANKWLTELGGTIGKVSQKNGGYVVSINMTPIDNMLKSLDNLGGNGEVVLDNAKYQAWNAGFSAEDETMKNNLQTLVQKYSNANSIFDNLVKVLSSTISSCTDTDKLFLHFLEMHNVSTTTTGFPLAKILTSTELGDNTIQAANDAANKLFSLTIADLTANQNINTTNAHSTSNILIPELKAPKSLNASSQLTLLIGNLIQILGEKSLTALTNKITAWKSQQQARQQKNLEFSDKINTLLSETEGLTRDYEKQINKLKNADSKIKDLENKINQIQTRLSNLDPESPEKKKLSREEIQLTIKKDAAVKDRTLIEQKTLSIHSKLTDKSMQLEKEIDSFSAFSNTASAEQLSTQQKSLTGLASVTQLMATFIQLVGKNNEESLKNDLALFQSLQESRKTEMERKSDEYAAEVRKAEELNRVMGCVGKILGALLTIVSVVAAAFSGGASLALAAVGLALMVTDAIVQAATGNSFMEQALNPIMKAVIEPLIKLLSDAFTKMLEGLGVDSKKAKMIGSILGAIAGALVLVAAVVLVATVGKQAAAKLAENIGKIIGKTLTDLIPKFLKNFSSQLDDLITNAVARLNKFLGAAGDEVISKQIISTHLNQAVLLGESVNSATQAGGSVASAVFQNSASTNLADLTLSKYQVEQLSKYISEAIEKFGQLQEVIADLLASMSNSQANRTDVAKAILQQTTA
Does B1 bind?
Result: binds

Source: patent US20130149329A1 (BOARD OF REGENTS FOR OKLAHOMA STATE UNIVERSITY, published 2013)
